Measured values taken from publication PMC11218954, “Characterization of two affinity matured Anti-Yersinia pestis F1 human antibodies with medical countermeasure potential” (2024).

What was measured:
Assay in all cases: flow cytometry on cells
αF1sc 8 EP1-19 = biological target: αF1sc 8 EP1-19
αF1sc 2 EP2-3 = biological target: αF1sc 2 EP2-3
αF1sc 2 EP1-42 = biological target: αF1sc 2 EP1-42

biotinylated F1V dimer (recombinant fusion of Y. pestis F1 and V antigen) (from UniProt P26948 22-170)
Kd (αF1sc 8 EP1-19): 36.3 nM
Kd (αF1sc 2 EP2-3): 145 nM
Kd (αF1sc 2 EP1-42): 162 nM
